A mixed list of measured activities; the numbers were collected in NIAID ChemDB.

Common to all: whole-cell or culture tests; species: Varicella zoster virus; cells: HFF; measure: EC50

Lines come from different laboratories, so protocols vary. ECn: concentration that inhibits the pathogen or its effect by n%. An empty or dashed field is not shown.

SMILES | strain | method | value
COC(c1cn([C@H]2C[C@H](O)[C@@H](CO)O2)c(=O)[nH]c1=O)C(Br)Br | ELLEN | plaque count | >225 µM
COC(=O)CC(SCCO)n1cc(C)c(=O)[nH]c1=O |  | cytopathic effect | >200 µM
O=C(NCc1ccc(Cl)cc1)c1cn(N2CCOCC2)c2ccc(CN3CCOCC3)cc2c1=O | Webster | plaque count | 0.4 µM
Nc1nc(NC2CC2)c2ncn(/C=C3/C[C@@H]3CO)c2n1 |  | cytopathic effect | 7 µM
CC(=O)N[C@H]1C[C@@H](n2cnc3c(N)ncnc32)[C@H](O)[C@@H]1O |  |  | >100 µg/mL
CC(=O)Nc1ccc(NC(=S)Nc2ccc(N(C)CCO)c(Cl)c2)cc1 | ELLEN | ELISA | >10 µg/mL
CCO[C@@H]1[C@@H](OCC)[C@H](Cc2ccccc2)O[C@@H]2CO[C@@H](c3ccc(Cl)cc3)O[C@@H]12 |  | cytopathic effect | >100 µg/mL
CC(=O)Nc1ccc(NC(=S)Nc2cc(Cl)c(OCC#N)c(Cl)c2)cc1 | ELLEN | ELISA | >10 µg/mL
COC(=O)C[C@@H](SCCO)n1cnc2c(Cl)nc(N)nc21 |  | cytopathic effect | 147 µM
Nc1nc2c(ncn2/C=C2\CC2(CO)CO)c(=O)[nH]1 |  | cytopathic effect | 0.6 µM
COC(c1cn([C@H]2C[C@H](O)[C@@H](CO)O2)c(=O)[nH]c1=O)C(I)I | ELLEN | plaque count | 91 µM
CCCOc1nc(N)nc2c1ncn2/C=C1/C[C@@H]1CO |  | cytopathic effect | 0.5 µM
Nc1nc2c(ncn2COCCO)c(=O)[nH]1 |  | plaque count | 0.24 µg/mL
COC(c1cn([C@H]2C[C@H](O)[C@@H](CO)O2)c(=O)[nH]c1=O)C(Cl)I | ELLEN | plaque count | 155 µM
Nc1nc(NCC2CC2)c2ncn(/C=C3/C[C@@H]3CO)c2n1 |  | cytopathic effect | 10.1 µM
Cc1cn([C@@H]2O[C@H](CO)[C@H]2CO)c(=O)[nH]c1=O | V8602/7-1-3 (TK-) | plaque count | 1.2 µg/mL
Nc1nc(NC2CC2)c2ncn(/C=C3/C[C@@H]3CO)c2n1 |  | plaque count | 12 µM
CC(NC(=S)Nc1ccc(NC(=O)c2nccc3ccccc23)c(C#N)c1)c1ccc(F)cc1 | ELLEN | ELISA | 0.049 µg/mL
CC(NC(=S)Nc1ccc(NC(=O)c2ccccc2F)cc1C#N)c1ccc(F)cc1 | JAB1233 | ELISA | 0.23 µg/mL
CCc1cn([C@H]2C[C@H](O)[C@@H](CO)O2)c(=O)[nH]c1=O | ELLEN | cytopathic effect | >67 µM
CCCSc1nc(N)nc2c1ncn2/C=C1/C[C@@H]1CO |  | plaque count | >69 µM
OC[C@H]1O[C@@H](n2c(Br)nc3cc(Cl)c(Cl)cc32)[C@H](O)[C@@H]1O |  | plaque count | >50 µM
CCCCCSc1nc(N)nc2c1ncn2/C=C1/C[C@@H]1CO |  | cytopathic effect | 2.3 µM
COC(c1cn([C@H]2C[C@H](O)[C@@H](CO)O2)c(=O)[nH]c1=O)C(Cl)Cl | ELLEN | plaque count | 13.8 µM
C=CCNc1nc(N)nc2c1ncn2/C=C1/C[C@@H]1CO |  | cytopathic effect | >367 µM
C=CCNc1nc(N)nc2c1ncn2/C=C1/C[C@@H]1CO |  | plaque count | >368 µM
CCCC(=O)OCC(CO)OCn1cnc2c(=O)[nH]c(N)nc21 |  | plaque count | 0.2 µg/mL
Cn1cc(C(=O)NCc2ccc(Cl)cc2)c(=O)c2cc(CN3CCOCC3)ccc21 | MC varicella isolate | plaque count | 0.6 µM
CCCC(=O)OCC(COC(=O)CCC)OCn1cnc2c(=O)[nH]c(N)nc21 |  | plaque count | 1.1 µg/mL
Nc1nc(NCC2CC2)c2ncn(/C=C3/C[C@@H]3CO)c2n1 |  | cytopathic effect | 10 µM
Nc1ncnc2ncn(/C=C3/C(F)C3(CO)CO)c12 |  | cytopathic effect | 2.7 µM
Nc1nc(NC2CCCCC2)c2ncn(/C=C3/C[C@@H]3CO)c2n1 |  | plaque count | 180 µM
CCCCCOc1nc(N)nc2c1ncn2/C=C1/C[C@@H]1CO |  | cytopathic effect | >66 µM
Nc1nc(NC2CC2)c2ncn(/C=C3/C[C@@H]3CO)c2n1 |  | cytopathic effect | 7 µM
Nc1nc2c(ncn2[C@@H](CCO)SCCO)c(=O)[nH]1 |  | cytopathic effect | 149 µM
Nc1nc2c(ncn2COCCO)c(=O)[nH]1 |  | plaque count | 0.7 µM
COc1cc(OCc2ccccc2)c(NC(=S)Nc2ccc(NC(C)=O)cc2)cc1Cl | ELLEN | ELISA | 3.5 µg/mL
CCCSc1nc(N)nc2c1ncn2/C=C1/C[C@@H]1CO |  | cytopathic effect | >69 µM
C=CCOc1nc(N)nc2c1ncn2/C=C1/C[C@@H]1CO |  | plaque count | 2.3 µM
COC(C)c1cn([C@H]2C[C@H](O)[C@@H](CO)O2)c(=O)[nH]c1=O | ELLEN | cytopathic effect | 66.4 µM
Nc1nc(NCC2CC2)c2ncn(/C=C3/C[C@@H]3CO)c2n1 |  | plaque count | 10.8 µM
O=c1[nH]c(=O)n([C@H]2C[C@H](O)[C@@H](CO)O2)cc1C(O)C(Cl)I | ELLEN | plaque count | 6.9 µM

For reference, 6 entries again:

SMILES | strain | method | value
COC(C)c1cn([C@H]2C[C@H](O)[C@@H](CO)O2)c(=O)[nH]c1=O | ELLEN | cytopathic effect | 66.4 µM
COC(c1cn([C@H]2C[C@H](O)[C@@H](CO)O2)c(=O)[nH]c1=O)C(Cl)Cl | ELLEN | plaque count | 13.8 µM
CCCCCSc1nc(N)nc2c1ncn2/C=C1/C[C@@H]1CO |  | cytopathic effect | 2.3 µM
Nc1nc(NCC2CC2)c2ncn(/C=C3/C[C@@H]3CO)c2n1 |  | cytopathic effect | 10 µM
CCCSc1nc(N)nc2c1ncn2/C=C1/C[C@@H]1CO |  | plaque count | >69 µM
Cn1cc(C(=O)NCc2ccc(Cl)cc2)c(=O)c2cc(CN3CCOCC3)ccc21 | MC varicella isolate | plaque count | 0.6 µM